In PubChem BioAssay (NCI):
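Method: 48-hour compound exposure of cells in 96-well plates, five concentrations, linear interpolation of endpoints. At the GI50, growth is halved. TGI: concentration producing complete growth inhibition.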

Experiments:
Assay in all cases: DTP human tumour cell line panel, 48 h
SN12C renal = test system: SN12C renal
NCI-H322M lung = test system: NCI-H322M lung
HS 578T breast = test system: HS 578T breast

## CC(=O)OC[C@]12C[C@H](OC(=O)CC(C)C)C(C)=C[C@H]1O[C@@H]1[C@H](O)[C@@H](O)[C@@]2(C)[C@@]12CO2
SN12C renal
  GI50: 26.7 nM
  TGI: 141 nM
NCI-H322M lung
  GI50: 101 nM
  TGI: 771 nM
HS 578T breast
  GI50: 17.9 nM
  TGI: 49.1 nM
